# PubChem BioAssay AID624099, ICCB-Longwood, 2012
# Screen: 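Human genes that papillomavirus E2 requires to repress the HPV18 LCR promoter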 (primary screen)
# Cell system: human C33A cervical carcinoma cells (HPV-negative) stably expressing BPV1 E2 and an HPV18 LCR luciferase reporter
# Reagent: siRNA pool against human genes, 40 nM
# Time to read-out: 72 h
# Read-out: 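Per-well luciferase luminescence, z-scored on each plate against the plate mean and SD with control wells left out, then averaged across three replicate plates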
# Scale: mean z-score and z-score: higher = stronger reporter signal, weaker E2 silencing
# Call rule: 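Mean z ≥ 2 together with z ≥ 2 in two or more of the three replicates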
# The whole screen tested about 21,000 reagents; this is an unselected part. In the full data, 497 (2.4%) were called active. 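Higher z means weaker E2 silencing; only reporter increases were scored, and knock-downs that hurt cell survival may mask genuine repressor factors.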 Reagents against one gene are numbered here.
gene,pool no.,mean z-score,"z-score, replicate A","z-score, replicate B","z-score, replicate C",activity call
CNGA2 (cyclic nucleotide gated channel subunit alpha 2),1,-1.23,-1.06,-1.35,-1.29,inactive
CEP290 (centrosomal protein 290),1,1.25,1.44,1.16,1.15,inactive
CEP290 (centrosomal protein 290),2,-0.09,-0.22,0,-0.06,inactive
AQP6 (aquaporin 6),1,1.8,1.89,1.94,1.57,inactive
AGO3 (argonaute RISC catalytic component 3),1,-0.98,-1.55,-0.8,-0.6,inactive
E2F8 (E2F transcription factor 8),1,1.75,1.6,1.55,2.09,inactive
BNIP5 (BCL2 interacting protein 5),1,-0.12,0.24,-0.16,-0.45,inactive
SPATA21 (spermatogenesis associated 21),1,-0.23,-0.22,-0.44,-0.02,inactive
RPS17P10 (ribosomal protein S17 pseudogene 10),1,-0.44,-0.33,-0.74,-0.24,inactive
ZNF28 (zinc finger protein 28),1,2.54,2.43,2.61,2.57,active
TLL2 (tolloid like 2),1,1.52,1.63,1.63,1.3,inactive
HK3 (hexokinase 3),1,1.16,1.74,0.67,1.06,inactive
PCNT (pericentrin),1,0.99,1.15,0.99,0.82,inactive
PRR23B (proline rich 23B),1,0.22,0.25,0.27,0.16,inactive
TIMM22 (translocase of inner mitochondrial membrane 22),1,-0.21,0.09,-0.64,-0.07,inactive
SESN1 (sestrin 1),1,0.29,0.69,0.29,-0.11,inactive
ELOVL5 (ELOVL fatty acid elongase 5),1,-1.24,-1.33,-1.26,-1.13,inactive
LINC00355 (long independently transcribed non-coding RNA 355),1,1.27,1.46,1.53,0.81,inactive
DEK (DEK proto-oncogene),1,-1.08,-0.51,-1.48,-1.24,inactive
PZP (PZP alpha-2-macroglobulin like),1,-0.26,-0.42,-0.17,-0.19,inactive
ADAM9 (ADAM metallopeptidase domain 9),1,-0.74,-1.65,-0.71,0.15,inactive
EFNA3 (ephrin A3),1,0.08,0.04,0.11,0.09,inactive
MTMR12 (myotubularin related protein 12),1,-0.76,-0.92,-0.82,-0.56,inactive
HHLA1 (HHLA1 neighbor of OC90),1,0.21,0.11,0.2,0.32,inactive
ZNF700 (zinc finger protein 700),1,0.66,0.34,0.5,1.16,inactive
LOC389166 (retired record),1,1.59,1.36,1.83,1.59,inactive
EIF3J (eukaryotic translation initiation factor 3 subunit J),1,-0.22,-0.29,-0.14,-0.22,inactive
SEPTIN11 (septin 11),1,0.81,0.63,0.77,1.02,inactive
LOC129026 (gamma-glutamyltransferase-like activity 1 pseudogene),1,-0.34,-0.55,-0.2,-0.26,inactive
RCAN2 (regulator of calcineurin 2),1,1.2,1.52,0.95,1.13,inactive
CLUL1 (clusterin like 1),1,0.01,0.14,0.05,-0.14,inactive
UQCC2 (ubiquinol-cytochrome c reductase complex assembly factor 2),1,-0.37,-0.25,-0.57,-0.29,inactive
IFI27L1 (interferon alpha inducible protein 27 like 1),1,-0.54,-0.49,-0.57,-0.55,inactive
CCDC82 (coiled-coil domain containing 82),1,-0.24,0.08,-0.27,-0.53,inactive
DHX36 (DEAH-box helicase 36),1,-2.6,-2.75,-2.68,-2.36,inactive
LOC399986 (retired record),1,-0.88,-0.6,-0.91,-1.14,inactive
FMNL2 (formin like 2),1,-1,-0.69,-1.24,-1.08,inactive
KNCN (kinocilin),1,0.93,0.04,1.24,1.52,inactive
CPS1 (carbamoyl-phosphate synthase 1),1,0.22,0.31,0.06,0.28,inactive
